{"source": "PubChem BioAssay AID624099 (ICCB-Longwood, 2012)", "purpose": "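Human genes that papillomavirus E2 requires to repress the HPV18 LCR promoter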 (primary screen)", "system": "human C33A cervical carcinoma cells (HPV-negative) stably expressing BPV1 E2 and an HPV18 LCR luciferase reporter", "reagents": "siRNA pool against human genes, 40 nM", "time to read-out": "72 h", "measurement": "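Per-well luciferase luminescence, z-scored on each plate against the plate mean and SD with control wells left out, then averaged across three replicate plates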", "reading the numbers": "mean z-score and z-score: higher = stronger reporter signal, weaker E2 silencing", "rule for the call": "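Hit if mean z-score reaches 2 and two or more of three replicate z-scores also reach 2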", "note": "The deposit covers about 21,000 reagents; this is a part drawn at random. In the full data, 497 (2.4%) got an active call. 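Higher z means weaker E2 silencing; only reporter increases were scored, and knock-downs that hurt cell survival may mask genuine repressor factors.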 Reagents against one gene are numbered here. Reagent sequences are not shown."}
{"gene symbol": "LOC388568 (retired record)", "reagent no.": 1, "mean z-score": -1.19, "z-score, replicate A": -1.42, "z-score, replicate B": -0.98, "z-score, replicate C": -1.16, "outcome": "inactive"}
{"gene symbol": "OR52L1", "reagent no.": 1, "mean z-score": 0.89, "z-score, replicate A": 1.06, "z-score, replicate B": 0.71, "z-score, replicate C": 0.91, "outcome": "inactive"}
{"gene symbol": "TREM1", "reagent no.": 1, "mean z-score": -1.77, "z-score, replicate A": -1.74, "z-score, replicate B": -1.78, "z-score, replicate C": -1.79, "outcome": "inactive"}
{"gene symbol": "TOGARAM1", "reagent no.": 1, "mean z-score": 1.24, "z-score, replicate A": 0.93, "z-score, replicate B": 1.05, "z-score, replicate C": 1.73, "outcome": "inactive"}
{"gene symbol": "LOC389841 (retired record)", "reagent no.": 1, "mean z-score": 0.33, "z-score, replicate A": 0.36, "z-score, replicate B": -0.05, "z-score, replicate C": 0.69, "outcome": "inactive"}
{"gene symbol": "CRYGD", "reagent no.": 1, "mean z-score": 0.53, "z-score, replicate A": 0.28, "z-score, replicate B": 0.64, "z-score, replicate C": 0.66, "outcome": "inactive"}
{"gene symbol": "PABPC3", "reagent no.": 1, "mean z-score": -1.78, "z-score, replicate A": -1.76, "z-score, replicate B": -1.74, "z-score, replicate C": -1.85, "outcome": "inactive"}
{"gene symbol": "ZFP62", "reagent no.": 1, "mean z-score": -0.46, "z-score, replicate A": -0.62, "z-score, replicate B": -0.73, "z-score, replicate C": -0.04, "outcome": "inactive"}
{"gene symbol": "DPF3", "reagent no.": 1, "mean z-score": 0.11, "z-score, replicate A": -0.24, "z-score, replicate B": 0.07, "z-score, replicate C": 0.51, "outcome": "inactive"}
{"gene symbol": "ZG16B", "reagent no.": 1, "mean z-score": 1.09, "z-score, replicate A": 1.03, "z-score, replicate B": 1.08, "z-score, replicate C": 1.16, "outcome": "inactive"}

Continued; the last 3 above are carried over.
{"gene symbol": "ZFP62", "reagent no.": 1, "mean z-score": -0.46, "z-score, replicate A": -0.62, "z-score, replicate B": -0.73, "z-score, replicate C": -0.04, "outcome": "inactive"}
{"gene symbol": "DPF3", "reagent no.": 1, "mean z-score": 0.11, "z-score, replicate A": -0.24, "z-score, replicate B": 0.07, "z-score, replicate C": 0.51, "outcome": "inactive"}
{"gene symbol": "ZG16B", "reagent no.": 1, "mean z-score": 1.09, "z-score, replicate A": 1.03, "z-score, replicate B": 1.08, "z-score, replicate C": 1.16, "outcome": "inactive"}
{"gene symbol": "HK1", "reagent no.": 1, "mean z-score": 0.19, "z-score, replicate A": 0.82, "z-score, replicate B": -0.1, "z-score, replicate C": -0.15, "outcome": "inactive"}
{"gene symbol": "CRP", "reagent no.": 1, "mean z-score": -0.45, "z-score, replicate A": -0.43, "z-score, replicate B": -0.65, "z-score, replicate C": -0.28, "outcome": "inactive"}
{"gene symbol": "NOPCHAP1", "reagent no.": 1, "mean z-score": 0.45, "z-score, replicate A": 0.17, "z-score, replicate B": 0.72, "z-score, replicate C": 0.45, "outcome": "inactive"}
{"gene symbol": "MGST1", "reagent no.": 1, "mean z-score": -0.27, "z-score, replicate A": -0.54, "z-score, replicate B": -0.02, "z-score, replicate C": -0.25, "outcome": "inactive"}
{"gene symbol": "TMEM144", "reagent no.": 1, "mean z-score": 0.16, "z-score, replicate A": 0.35, "z-score, replicate B": 0.61, "z-score, replicate C": -0.49, "outcome": "inactive"}
{"gene symbol": "CWH43", "reagent no.": 1, "mean z-score": 0.31, "z-score, replicate A": 0.59, "z-score, replicate B": 0.26, "z-score, replicate C": 0.09, "outcome": "inactive"}
{"gene symbol": "ACTB", "reagent no.": 1, "mean z-score": -1.24, "z-score, replicate A": -1.33, "z-score, replicate B": -1.09, "z-score, replicate C": -1.3, "outcome": "inactive"}
{"gene symbol": "ATP5MJ", "reagent no.": 1, "mean z-score": -0.67, "z-score, replicate A": -0.93, "z-score, replicate B": -0.36, "z-score, replicate C": -0.71, "outcome": "inactive"}
{"gene symbol": "NEBL", "reagent no.": 1, "mean z-score": 0.38, "z-score, replicate A": 0.25, "z-score, replicate B": 0.45, "z-score, replicate C": 0.45, "outcome": "inactive"}
{"gene symbol": "NEBL", "reagent no.": 2, "mean z-score": -1.03, "z-score, replicate A": -1.17, "z-score, replicate B": -1.02, "z-score, replicate C": -0.91, "outcome": "inactive"}
{"gene symbol": "CCDC144NL", "reagent no.": 1, "mean z-score": -0.08, "z-score, replicate A": -0.15, "z-score, replicate B": -0.07, "z-score, replicate C": -0.02, "outcome": "inactive"}
